Measured values from US20130156708A1, “PHENOL DERIVATIVES AS ANTIMICROBIAL AGENTS” (Symrise AG, priority 2011, published 2013).

Assays:
[1] = Taste impressions in sugar slurry
[2] = Smell description in own experiments
[3] = Sensory test in basic formulations for personal care and home care; details: 0.5% in bar soap, all purpose cleaner, liquid detergent, detergent powder, fabric softener, body lotion, hair shampoo

| Compound | Taste impression ([1]; dosage 0.01%) | Taste impression ([1]; dosage 0.03%) | Taste impression ([1]; dosage 0.05%) | smell [2] | sensory impression versus comparison compositions without compound [3] |
| --- | --- | --- | --- | --- | --- |
| CC(C)=CCc1ccccc1O [IIIa, 2-(3-Methylbut-2-enyl)phenol] | neutral-no taste impression | green, sweet, camphor-like, rock-candy, floral | strong flavor impression, sweet, candy-floss, green, technical, | rosy, green, clove-like, slightly technical | no negative sensory impression observed |
| CC(C)=CCc1ccc(O)cc1 [IIa, 4-(3-Methylbut-2-enyl)phenol] | neutral-no taste impression | green, sweet, camphor-like, rock-candy, floral | strong flavor impression, sweet, candy-floss, green, technical, | rosy, green, clove-like, slightly technical | no negative sensory impression observed |
